Measured values reported in US5227487A, “Certain tricyclic and pentacyclic-hetero nitrogen rhodol dyes” (Molecular Probes, Inc., priority 1990, dated 1993).

Assay: Chemical reactivity of rhodol dyes with model compounds

SMILES | reaction with bovine serum albumin, alphabungarotoxin and phallacidin
O=C1CCc2cc3c(cc2O1)Oc1c(cc2c4c1CCCN4CCC2)C31OC(=O)c2ccccc21 (centres unmarked) [Compound 63] | fluorescent peptide or protein conjugates
O=C(ON1C(=O)CCC1=O)c1ccc(C(=O)O)c(-c2c3cc(Cl)c(=O)cc-3oc3c4c5c(cc23)CCCN5CCC4)c1 [Compound 29] | fluorescent peptide or protein conjugates

Some entries repeat one wording, which the source may state once for all of them.
